From the supplement of paper PMC9931576
Human monoclonal antibodies against the spike receptor-binding domain (heavy:light variable regions). IC50 against pseudoviruses bearing the spike of naturally observed variants; lower = stronger; >10 µg/ml means not reached at the top dose. No active / inactive call. The stated detection limit is 0.0005 µg/ml; values near or below 0.001 µg/ml lie at the floor of the assay.

B1: BD55-5779 (protein)
chain 1: QVQLVQSGAEVKKPGASVKVSCKASGYSFTDYAVHWVRLAPGQRLEWMGWINTANGDTKYSQNFQDRVTITRDTSATTAYMELSSLRSEDTAVYYCARAIIVHTAPVTFYFYYGMDVWGQGTTVTVSS
chain 2: SYELTQPPSVSVSPGQTARITCSGDALPKQYAYWYQQKPGQAPILVIYKDNERPSGIPERFSGSSSGTTVTLTISGVQPEDEADYYCQSADSATTYMVFGGGTKLTVV
B2: BD55-5815 (protein)
chain 1: EVQLVESGGGLVQPGGSLRLSCAASGFSFSNYDMHWVRQTKAEGLEWVSAIGTSGDTYYADSVKGRFIISRENAKNSLYLQMSRLRDGDTAVYYCVRGDFDSRGFVGWFDPWGQGTLVAVSS
chain 2: DFQMTQSPSSLSASVGERVTITCRASQYISNYLNWYQQKPGKAPKLLIYAASSLQSGVPSRFSGSGSGRDFTLTISSLQPDDFATYYCQQSYATPPWTFGPGTKVDIK
B3: BD55-5785 (protein)
chain 1: QVQLQESGPGLVKPSETLSLTCIVSGGPISSYYWTWIRQPPGKGLEWIGYVYYSGHTDYNPSVKSRVTISIDRSRNQFSLNLRSVSTADTAVYYCARGSGPYDMLTGTPGYKFDQWGQGTLVTVSS
chain 2: SYEVTQPSSVSVSPGQTASITCSGDNLGKNSVCWYQQKPGQSPVLVIYEDKERPSGIPERFSGSNSGNTATLTISGTQAVDEADYFCQAWDTKTWVFGGGTKLTVL
B4: BD55-5831 (protein)
chain 1: QMQLVESGGGVVRPGRSLRLSCAASAFPFSTYAMHWVRQAPGKGLEWVAVISYDGSDIYYADSVKGRFTISRDNSKNTLYLQMSNLGAEDTAVYYCARAGVLRNFDWLLSSGFAYWGQGTLVTVSS
chain 2: DIQMTQSPSSLSASVGDRVTITCQASQDIRNYLNWYQQKPGKAPKLLIYDASNLEPGVPSRFSGRGSGTDFTLTISSLQPEDLATYYCQQYFNLPSFGQGTKLEIK
B5: BD55-5771 (protein)
chain 1: QVQLVQSGAEVKKPGASVKVSCKGSGYPFTGYFLHWVRQAPGQGPEWMGWINPLSGATNYAQKFQGRVTMTRDTSINTAYMELSRLRSDDTAVYYCASPSFCSSSDCYHYYYYYMDVWGKGTTVTVSS
chain 2: DIVMTQTPLSLSVTPGQSASISCRSSQSLLHSDGKTYLYWYLQKPGQPPQLLIYEVSNRFSGVPDRFSGSGSGTDFTLKISRVEAEDVGVYYCMQSIELPITFGQGTRLEIK
B6: BD55-5836 (protein)
chain 1: QVQLQESGPGVVKPSETLSLTCSVSGDSISSDSYFWAWIRQPPGKGPQWIGSIYYSGSTYYTPSLKSRVTISVDTSKSQLSLKLSSVTAADTAVYYCARLPLVLRYFDWLSWGRGTLVTVSS
chain 2: EIVLTQSPGTLSLSPGERATLSCRASQSISNSYLAWYQQKPGQAPRLLIYGASSRATGIPDRFSGSGSGTDFTLTISRLEPEDFAVYYCQQYRSSQGWTFGQGTKVEIK
B7: BD55-1104 (protein)
chain 1: EVQLVQSGAEVKKPGESLKISCKGSGYSFTTYWTGWVRQVPGKGLEWMGLIYPRDSDARYTPSFEGHVTISADNSINTAYLHWSSLKASDTAIYYCVSAGDTGWRGHADYWGQGTLVTVSS
chain 2: DIQMTQSPSSLSASVGDRVTITCRASLDIRNYLVWFQQKPGTAPKSLIYEASTLQSGVPSRFSGSGSGTDFTLTISSLRPEDFATYYCQQYNTWPFTFGGGTKVEIK
B8: BD55-5790 (protein)
chain 1: EVQLVESGGNLVQPGGSLRLSCAASGFTFSRYWMSWVRQAPGKGLEWVANIKQDGSETSYVDSVEGRFTISRDNAKNSLFLQMNSLRAEDTAVYYCARAPVSYDILTPEWFDAWGQGTLVTVSS
chain 2: YELTQPPSVSVSPGQTARITCSGDPLPTQWTNWYQQKPGQAPVMVIYKDRERPSGIPERFSGSTSGTTVTLIISGVQAEDEADYYCQSADSRFWVFGGGTKLTVL
B9: BD55-5774 (protein)
chain 1: EVQLVEAGGGLVKPGESLRISCAVSGFIFRSYSMNWVRQAPGKGLEWVSSISSVSDYISYGDSVKGRFAISRDNAQNSLFLQMNSLRAEDTAVYYCARRSNAGEVLDYWGQGTLVIVSS
chain 2: DIVMTQSPDSLAVSLGERATIHCKSSQSVLYSSNNKNYLAWYQQKPGQPPKLLLYWASTRESGAPDRFSGSGSGTDFTLTISSLQAEDVAVYYCQQFYSSPITFGQGTRLDIK
B10: BD55-5806 (protein)
chain 1: QVQLVQSGAEVKKPGSSVKVSCKASGGSFGNYAITWVRQAPGQGLEWMGRIIPILERANYAQKVQGRITITADTSTSTAYMELSSLRSEDTAVYYCARDASCDFWSGYCQNDAFDIWGQGTMVAVSS
chain 2: DIQVTQSPSAMSVSVGDRVTITCRASQGVSNYLVWFQQKPGKAPKRLIYAASSLQSGVPSRFSGSGSGTEFTLTISSLQPEDFATYYCLHHSSYPWTFGQGTKVEIK
B11: BD55-5840 (protein)
chain 1: QVQLAQSGSELRKPGASVKVSCDTSGHSFTSNAIHWVRQAPGQGLEWMGWINTDTGTPTYAQGFTGRFVFSLDTSARTAYLQISSLKADDTAVFYCARERDYSDYFFDYWGQGTLVTVSS
chain 2: EVVMTQSPASLSVSPGERATLSCRARASLGISTDLAWYQQRPGQAPRLLIYGASTRATGIPARFSGSGSGTEFTLTISSLQSEDSAVYYCQQYSNWPLTFGGGTKVEIK
B12: BD55-5789 (protein)
chain 1: QLQLQESGPGLVKPSETLSLTCTVSGASMSSSSDHWGWIRQPPGKGLEWIGSTFYSGTIYYNPSLKSRVSISVDTSKNQFSLNLSSVTAADTAVYFCARTAWFGELDDYWGQGTLVTVSS
chain 2: QSVLTQPPSASGTPGQRVTIPCFGSSSNIGSNYVYWYQQLPGTAPKLLIYGNNQRPSGVPDRFSGSKSGTSASLTISGLRSEDEADYYCAAWDETLKVVFGGGTKLTVL

Tests used:
Assay in all cases: pseudovirus neutralization IC50; higher = weaker neutralization
[1] = target: SARS-CoV-2 Omicron BA.1 spike pseudovirus
Description: (§1)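 Single-round VSV luciferase pseudovirus mixed with antibody dilutions for 1 h and put on Huh-7 cells for about a day; IC50 from the dose curve.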

[2] = target: SARS-CoV-2 Omicron BA.2 spike pseudovirus
Description: as §1

[3] = target: SARS-CoV-2 Omicron BA.2.75 spike pseudovirus
Description: as §1

[4] = target: SARS-CoV-2 Omicron BA.5 spike pseudovirus
Description: as §1

[5] = target: SARS-CoV-2 Omicron BQ.1.1 spike pseudovirus
Description: as §1

[6] = target: SARS-CoV-2 Omicron XBB spike pseudovirus
Description: as §1

[7] = target: SARS-CoV-2 early D614G spike pseudovirus
Description: as §1

| Binder | pseudovirus neutralization IC50 [1] [µg/mL] | pseudovirus neutralization IC50 [2] [µg/mL] | pseudovirus neutralization IC50 [3] [µg/mL] | pseudovirus neutralization IC50 [4] [µg/mL] | pseudovirus neutralization IC50 [5] [µg/mL] | pseudovirus neutralization IC50 [6] [µg/mL] | pseudovirus neutralization IC50 [7] [µg/mL] |
| --- | --- | --- | --- | --- | --- | --- | --- |
| B1 | > 10 | > 10 | > 10 | > 10 | > 10 | > 10 | 0.363 |
| B2 | 5.84 | > 10 | > 10 | 8.12 | > 10 | > 10 | 0.648 |
| B3 | > 10 | > 10 | > 10 | > 10 | > 10 | > 10 | 1.97 |
| B4 | > 10 | > 10 | > 10 | > 10 | > 10 | > 10 | 0.157 |
| B5 | > 10 | > 10 | 0.379 | > 10 | > 10 | > 10 | 0.001 |
| B6 | > 10 | > 10 | > 10 | > 10 | > 10 | > 10 | 0.399 |
| B7 | 1.7 | 0.00492 | 0.242 | 0.00378 | 3.03 | > 10 | 0.0013 |
| B8 | > 10 | > 10 | > 10 | > 10 | > 10 | > 10 | 2.84 |
| B9 | 4.08 | 1.65 | 5.47 | > 10 | > 10 | > 10 | 0.0132 |
| B10 | 0.333 | 0.213 | 0.0018 | > 10 | > 10 | > 10 | 0.0017 |
| B11 | 0.0044 | 0.00512 | 0.246 | 0.00393 | 0.651 | > 10 | 0.001 |
| B12 | > 10 | > 10 | > 10 | > 10 | > 10 | > 10 | > 10 |
